Drawing on PMC9540141, this text covers Kd for three substances.

As usually defined, the Kd is the concentration at which binding is half-saturated. The low end stands for higher affinity, the high end for lower affinity.

The target of the assay is SARS-CoV-2 RBD-His (SARS-CoV-2) (UniProt P0DTC2). As to the kind of experiment: BLI. A general note: Biolayer interferometry detects binding as a change in optical thickness at a sensor tip.
Turning to 4L12 (from UniProt P01857), the Kd is 1.49 nM.

16L9 (from UniProt P01857): the Kd was found to be 1.15 nM.

For GW01 (from UniProt P01857), the equilibrium dissociation constant (Kd) is 1.28 nM.
